Compound potency records, mixed from different reports. Data source: NIAID ChemDB in PubChem.

Common to all: target-level tests

Neighbouring rows are from separate reports. Inhibition is in % at the dose shown (toxicity tests: loss of growth or viability). a–b is a range or a potency band. ICn is the concentration giving n% inhibition. An empty or dashed field is not shown.

SMILES | target | strain or isolate | tested at | read-out | agent | read by | value
c1ccc(CSc2nnc3c4ccccc4c4ccccc4c3n2)cc1 | Thiamin phosphate synthase | - | - | IC50 | Mycobacterium tuberculosis | - | 100 µg/mL
O=C(Nc1ccccc1)N1CCc2c(c(-c3ccccc3)nn2Cc2cn(-c3ccc(F)c(F)c3)nn2)C1 | Pantothenate synthetase | - | - | IC50 | Mycobacterium tuberculosis | absorbance | 1.56 µM
Cc1cc(=O)n([C@@H]2O[C@H](CO)C3CNC(=O)OC32)c(=O)[nH]1 | Thymidine monophosphate kinase | - | - | Ki | Mycobacterium tuberculosis | - | 13.5 µM
O=C(Nc1cccc([N+](=O)[O-])c1)c1ccc2ccccc2c1O | Thiamin phosphate synthase | - | - | IC50 | Mycobacterium tuberculosis | - | 100 µg/mL
Oc1ccccc1Oc1ccc(Oc2ccccc2O)cc1 | Enoyl reductase | - | - | IC50 | Mycobacterium tuberculosis | - | >190 µM
O=C(Nc1cccc([N+](=O)[O-])c1)c1cc2ccccc2cc1O | Thiamin phosphate synthase | - | - | IC50 | Mycobacterium tuberculosis | - | 70 µg/mL
N#CCC[C@H]1O[C@@H](n2cc(CO)c(=O)[nH]c2=O)C[C@@H]1O | TMPKmt | - | - | Ki | Mycobacterium tuberculosis | binding / absorbance | >2600 µM
O=C1c2cccc3cccc(c23)C(=O)N1C/C=C\Cn1cc(Br)c(=O)[nH]c1=O | Thymidine monophosphate kinase | - | - | Ki | Mycobacterium tuberculosis | absorbance | 1.1 µM
Nc1nc(N)c2cc(COC(=O)c3cccs3)ccc2n1 | Dihydrofolate reductase | - | - | IC50 | Mycobacterium avium | - | 0.053 µM
O=C(O)[C@]1(O)C=C(c2ccccc2)[C@@H](O)[C@H](O)C1 | Type II dehydroquinase | - | - | Ki | Mycobacterium tuberculosis | - | 1 µM
O=C(Nc1ccccc1)N1CCc2c(c(-c3ccccc3)nn2Cc2cn(-c3ccc(Br)c(C(F)(F)F)c3)nn2)C1 | Pantothenate synthetase | - | - | IC50 | Mycobacterium tuberculosis | absorbance | 6.54 µM
CO[C@H]1/C=C/O[C@@]2(C)Oc3c(C)c(O)c4c(=O)c(c5oc6cc(N7CCN(CC(C)C)CC7)cc(=O)c6nc5c4c3=C2O)NC(=O)/C(C)=C\C=C\[C@H](C)[C@H](O)[C@@H](C)[C@@H](O)[C@@H](C)[C@H](OC(C)=O)[C@@H]1C | RNA polymerase | N-265 | - | IC50 | Mycobacterium avium | - | <0.5 µg/mL
CC(C)[C@H]1CO[C@]23CCN(Cc4cc5ccccc5n4C)C[C@H]2CCC(=O)N13 | NADH dehydrogenase | - | - | IC50 | Mycobacterium tuberculosis | resazurin | <0.1 µM
O=c1[nH]c(=O)n([C@H]2C[C@H](O)[C@@H](CO)O2)cc1Br | Thymidylate kinase | - | - | Ki | Mycobacterium tuberculosis | - | 5 µM
Nc1nc(N)c2cc(COC(=O)c3cccc(-c4ccccc4)c3)ccc2n1 | Dihydrofolate reductase | - | - | IC50 | Mycobacterium avium | - | 0.056 µM
CCCCCCCCO[C@H]1O[C@H](CO[C@H]2O[C@H](CNS(=O)(=O)c3ccc(C)cc3)[C@@H](O)[C@@H]2O)[C@@H](O)[C@@H]1O | Arabinofuranosyltransferase | H37Ra | - | IC50 | Mycobacterium tuberculosis | - | 1820 µM
CCCOc1ccc(OCC)cc1NCc1cnc2nc(N)nc(N)c2c1C | Dihydrofolate reductase | - | - | IC50 | Mycobacterium avium complex | - | 0.0089 µM
OC[C@H](O)[C@H]1NC[C@H](F)[C@H]1O | Arabinofuranosyltransferase | - | - | IC50 | Mycobacterium tuberculosis | - | >4000 µM
COC1=C(Br)[C@@H](O)[C@]2(C=C1Br)CC(C(=O)NCCc1cnc(N)[nH]1)=NO2 | MYCOTHIOL-S-CONJUGATE AMIDASE | - | - | IC50 | Mycobacterium tuberculosis | - | 100 µM
OC[C@H]1NC[C@@H](F)[C@@H]1O | Arabinofuranosyltransferase | - | - | IC50 | Mycobacterium tuberculosis | - | >4000 µM
O=C1NC(=O)C2C(N1)N(C[C@H](O)[C@H](O)[C@H](O)CO)C(=O)N2CCCCCCOP(=O)(O)O | Lumazine synthase | - | - | Ki | Mycobacterium tuberculosis | - | 170 µM
Cc1cn([C@@H]2O[C@H](CO)[C@H]3CNC(=S)O[C@H]32)c(=O)[nH]c1=O | Thymidine monophosphate kinase | H37Rv | - | Ki | Mycobacterium tuberculosis | - | 3.5 µM
O=C(O)c1c2n(c3cc(N4CCN(Cc5ccc6c(c5)OCO6)CC4)c([N+](=O)[O-])cc3c1=O)CS2 | DNA gyrase | ATCC 14468 MC2 | - | IC50 | Mycobacterium smegmatis | gel | >50 µg/mL
Oc1cc(F)ccc1Oc1ccccc1 | Enoyl reductase | - | - | Ki | Mycobacterium tuberculosis | - | 13 µM
O=C1CN(Cc2ccc3ccccc3c2)S(=O)(=O)c2ccccc21 | N-acetyltransferase | - | - | IC50 | Mycobacterium smegmatis | - | >100 µM
Cc1cn(C/C=C\CN2C(=O)c3cccc4cccc(c34)C2CO)c(=O)[nH]c1=O | Thymidine monophosphate kinase | - | - | Ki | Mycobacterium tuberculosis | absorbance | 6.2 µM
CCCCCCCCO[C@H]1O[C@H](CO[C@H]2O[C@H](CN=[N+]=[N-])[C@@H](O)[C@@H]2O)[C@@H](O)[C@@H]1O | Arabinofuranosyltransferase | H37Ra | - | IC50 | Mycobacterium tuberculosis | - | 2930 µM
CO[C@H]1CN(c2nc(-c3ncn(C)n3)c(C(=O)O)s2)CC[C@H]1NC(=O)c1[nH]c(C)c(Cl)c1Br | DNA gyrase holoenzyme | H37Rv | - | IC50 | Mycobacterium tuberculosis | gel | <0.005 µM
Nc1nc(N)c2cc(COC(=O)C(c3ccccc3)c3ccccc3)ccc2n1 | Dihydrofolate reductase | - | - | IC50 | Mycobacterium avium | - | 3.6 µM
O=C1NC(=O)C2C(N1)N(C[C@H](O)[C@H](O)[C@H](O)CO)C(=O)N2CCCCOP(=O)(O)O | Lumazine synthase | - | - | Ki | Mycobacterium tuberculosis | - | 4.1 µM
COC(=O)[C@@H](NC(=O)NCCC(=O)N[C@H]1CCCCNC(=O)/C=C/[C@H](Cc2c[nH]c3ccccc23)NC1=O)C(C)C | Proteasome | - | - | IC50 | Mycobacterium tuberculosis | substrate cleavage / fluorescence | 17.25 µM
CC(C)[C@H]1CO[C@]23CCN(Cc4ccc(C(F)(F)F)cc4)C[C@H]2CC(=O)N13 | NADH dehydrogenase | - | - | IC50 | Mycobacterium tuberculosis | resazurin | 0.1–1 µM
CO[C@H]1CN(c2nc(-c3ncn(CC4CC4)n3)c(C(=O)O)s2)CC[C@H]1NC(=O)c1[nH]c(C)c(Cl)c1Br | DNA gyrase holoenzyme | H37Rv | - | IC50 | Mycobacterium tuberculosis | gel | <0.005 µM
Cc1cn([C@@H]2C[C@H](O)[C@@H](CNC(=S)Nc3ccc(Cl)c(C(F)(F)F)c3)O2)c(=O)[nH]c1=O | TMPK | - | - | Ki | Mycobacterium tuberculosis | absorbance | 2.3 µM
Nc1nc(N)c2cc(COC(=O)c3c4ccccc4cc4ccccc34)ccc2n1 | Dihydrofolate reductase | - | - | IC50 | Mycobacterium avium | - | 1 µM
O=C(Nc1ccccc1)N1CCc2c(c(-c3ccccc3)nn2Cc2cn(-c3ccccc3)nn2)C1 | Pantothenate synthetase | - | - | IC50 | Mycobacterium tuberculosis | absorbance | 2.13 µM
CC(=O)Nc1ccc(Nc2nc(-c3ccccn3)cs2)cc1 | DNA gyrase | - | 30 µM | inhibition | Mycobacterium tuberculosis | gel | 51%
COc1cc(C(=O)NS(=O)(=O)c2ccccc2C)ccc1Cc1cn(C)c2ccc(NC(=O)OC3CCCC3)cc12 | Lsr2 | - | - | Ki | Mycobacterium tuberculosis | binding | 13.9 µM
Cc1cc(=O)n([C@@H]2O[C@H](CO)C3CN=C(N)NC32)c(=O)[nH]1 | Thymidine monophosphate kinase | - | - | Ki | Mycobacterium tuberculosis | - | 46 µM
Oc1cc(Cl)ccc1Oc1ccccc1 | Enoyl reductase | - | - | Ki | Mycobacterium tuberculosis | - | 4.9 µM
O=c1[nH]c(=O)c2[nH]c(=O)c(=O)n(C[C@H](O)[C@H](O)[C@H](O)CO)c2[nH]1 | Lumazine synthase | - | - | Ki | Mycobacterium tuberculosis | - | 1.4 µM
Nc1nc(N)c2cc(COC(=O)c3ccccc3Cc3ccccc3)ccc2n1 | Dihydrofolate reductase | - | - | IC50 | Mycobacterium avium | - | 0.36 µM
COc1cc(NCc2cnc3nc(N)nc(N)c3c2C)cc(OC)c1 | Dihydrofolate reductase | - | - | IC50 | Mycobacterium avium complex | - | 0.00064 µM
Cn1c(-c2cccc(N)c2)c(I)c2cc(C(=O)O)c(O)cc21 | mPTPB | - | - | IC50 | Mycobacterium tuberculosis | absorbance | 19 µM
CCCCCc1ccc(-c2cn(C[C@@H](O)COc3ccc4c(c3)OC3(CCCCC3)CC4=O)nn2)cc1 | DNA gyrase | - | 30 µM | inhibition | Mycobacterium tuberculosis | gel | 46%
Cc1ccc(-n2cc(Cn3nc(-c4ccccc4)c4c3CCN(C(=O)Nc3ccccc3)C4)nn2)cc1 | Pantothenate synthetase | - | - | IC50 | Mycobacterium tuberculosis | absorbance | 1.54 µM
NNC(=O)c1ccncc1 | NADH oxidase | H37RV (INH 10 ug/mL-R) | 1000 µM | inhibition | Mycobacterium tuberculosis | - | 0%
CCc1ccc(-n2cc(Cn3nc(-c4ccccc4)c4c3CCN(C(=O)Nc3ccccc3)C4)nn2)cc1 | Pantothenate synthetase | - | - | IC50 | Mycobacterium tuberculosis | absorbance | 2.56 µM
C=CC(C)(C)c1c(OC)oc(-c2ccccc2)cc1=O | MurE | - | 1000 µM | inhibition | Mycobacterium tuberculosis | absorbance | 83%
O=C(O)CC1[C@@H](O)[C@H](O)C(O)[C@H](O)[C@@H]1O | Phosphatidylinositol phosphate synthase | - | 1000 µM | inhibition | Mycobacterium bovis | - | 7%
Nc1nc(N)c2cc(COC(=O)c3cc4ccccc4c4ccccc34)ccc2n1 | Dihydrofolate reductase | - | - | IC50 | Mycobacterium avium | - | 1 µM
Cc1cn(C/C=C\CN2C(=O)c3cccc4cccc(c34)C2=O)c(=O)n(C)c1=O | Thymidine monophosphate kinase | - | - | Ki | Mycobacterium tuberculosis | absorbance | >100 µM
COc1cccc(-n2cc(Cn3nc(-c4ccccc4)c4c3CCN(C(=O)Nc3ccccc3)C4)nn2)c1 | Pantothenate synthetase | - | - | IC50 | Mycobacterium tuberculosis | absorbance | 7.78 µM
[2H]C([2H])([2H])OC(=O)N/C=C/CCCc1cc(O)c(C(=O)/C(C)=C/c2cnc(Oc3ccc(F)cc3)s2)c(=O)o1 | RNA polymerase | - | - | IC50 | Mycobacterium tuberculosis | nucleotide incorporation / fluorescence | 0.03 µM
CC(C)[C@H]1CO[C@]23CCN(Cc4ccc(Cl)cc4)C[C@H]2CCC(=O)N13 | NADH dehydrogenase | - | - | IC50 | Mycobacterium tuberculosis | resazurin | <0.1 µM
Cc1cn(C/C=C\CN2C(=O)C3=CC=CC4=CC=CC2C43)c(=O)[nH]c1=O | Thymidine monophosphate kinase | - | - | Ki | Mycobacterium tuberculosis | absorbance | 0.42 µM
O=C(O)c1cn2c(n1)CN(c1cc3c(cc1F)c(=O)c(C(=O)O)c1n3CS1)CC2 | DNA gyrase | ATCC 14468 MC2 | - | IC50 | Mycobacterium smegmatis | gel | 15 µg/mL
Oc1ccccc1Oc1ccc2ccccc2c1 | Enoyl reductase | - | - | IC50 | Mycobacterium tuberculosis | - | 12 µM
CCO[C@H]1CN(c2nc(-c3ncn(C)n3)c(C(=O)O)s2)CC[C@H]1NC(=O)c1[nH]c(C)c(Cl)c1Br | DNA gyrase holoenzyme | H37Rv | - | IC50 | Mycobacterium tuberculosis | gel | <0.005 µM
COc1ccc(-c2cn(C[C@@H](O)COc3ccc4c(c3)OC3(CCN(C(=O)OC(C)(C)C)CC3)CC4=O)nn2)cc1 | DNA gyrase | - | 30 µM | inhibition | Mycobacterium tuberculosis | gel | 54%
OC1C(O)C(O)C(O)C(O)C1O | Phosphatidylinositol phosphate synthase | - | 1000 µM | inhibition | Mycobacterium bovis | - | -2%
Cc1cn([C@@H]2O[C@H](CO)[C@H]3CNC(=S)O[C@H]32)c(=O)[nH]c1=O | Thymidine monophosphate kinase | - | - | Ki | Mycobacterium tuberculosis | - | 150 µM
COc1cccc(OC)c1-c1cccc(C(=O)OCc2ccc3nc(N)nc(N)c3c2)c1 | Dihydrofolate reductase | - | - | IC50 | Mycobacterium avium | - | 0.59 µM